According to US20120207760A1, “Compositions and Methods for the Therapy and Diagnosis of Influenza” (THERACLONE SCIENCES, published 2012):
Substitutions are numbered along the chain they refer to.

B1: TCN-534 (5249_B02) (antibody, V domains shown)
VH: QVQLVQSGAEVKKPGSSVKVSCRESGGTFNGYTITWVRQAPGQGLEWMGGIIPMMGTVNYAQKLQGRVTITTDYFTKTAYMDLNNLRSEDTAMYYCVKIRYTGQQLLWGQGTLVTVSS
VL: DIQMTQSPSTLSASIGDRVTITCRASQSIASWLAWYQQKPGKAPKLLIYEAVNLESGVPSRFSGSGSGTDFTLTISSLQPDDFATYFCQHYGTISQTFGGGTKVEIK
B2: TCN-537 (3194_D21) (antibody, V domains shown)
VH: QVQLQQWGSGLLKPSETLSLTCAVYGGSFRDDYWTWIRQPPGKGLEWIGEINHSGRTNYNPSLKSRVTISVDTSLKQFSLKVISVTAADTAVYYCARGTSHVSRYFDWLPPTNWFDPWGQGTQVTVSS
VL: DIVLTQSPGTLSLSPGERATLSCRASQSVSSSYLAWYQQKPGQAPRLVMYGAATRATGIPDRFSGSGSGPDFTLTISRLEPEDFAMYYCQQYGNSPITFGQGTRLEIK
B3: TCN-538 (3206_O17) (antibody, V domains shown)
VH: QITLKESGPTLVKPTQTLTLTCVFSGFSLSITGVRVGWIRQPPGKALEWLALISWDDEKHYSPSLQSRLTITKDTSKNQVVLTMTNLDPVDTATYYCARSTDRGHVLRYFGWMLPGDAFDVWGQGTMVTVSS
VL: DIVMTQSPDFLPVSLGERATINCKSSQRVLYSSNNKNYLAWYQLKPGQPPKLIIYWASTRESGVPDRFSGSGSGTEFTLTISSLQAEDVAVYYCQQYYSRPYTFGQGTKLEIK
B4: TCN-530 (5248_H10a) (antibody, V domains shown)
VH: QVQLVQSGAEVRKPGSSVKVSCKASGGPFMSYAIGWVRQAPGQGLEWMGGINPVFGRPHYAQKFQGRVTIATDDSTKTSYMELSSLTSEDTGMYYCASRYSRSSPGTFESWGQGTLVTVSS
VL: EIVMTQFPATLSVSPGERVTLSCRASQSVSNNLAWYQQKPGQPPRLLIYDASTRATGVPAKFSGTGSGTEFTLSISSLQSEDFAVYYCQQYHNWPPSYSFGLGTKLEIK
B5: TCN-535 (5246_P19) (antibody, V domains shown)
VH: QVQLVQSGSEVKKPGTSVKVSCTASGSVFTNYGISWVRQAPGQGLEWMGGIIPLFGAAKYAQKFQGRVTITADESTKTVYMELSRLTSKDTAIYFCAKAPRVYEYYFDQWGQGTPVTVSS
VL: EIVLTQSPGTLSLSPGERATLSCRASQSVSSSQLAWYQQKPGQAPRLIIYGASTRATGIPDRFSGSGSGTDFTLTIGRLEPEDFAVFFCQQYSTSPPTFGQGTKVDFK
B6: TCN-521 (3280_D18) (antibody, V domains shown)
VH: EVQLVQSGGGLVQPGGSLRLACVVSGFTVTSNYITWVRQAPGKGLEWVSVIYSHGRAYYSASVNGRFTISRHTSKNTVYLEMNSLRPEDTAVYYCAGGGLVGGYDEYFFDYWGQGTLATVSS
VL: ETVLTQSPGTLSLTPGERATLSCRVGQSVSGSHLAWYQQKPGQAPRLLIYGASSRATGIPDRFGGSVSGTDFTLTISRLEPEDSAVYYCQQYGDSRYTFGQGTKLEIK
B7: TCN-549 (5092_P04) (antibody, V domains shown)
VH: QVQLVQSGAEVKKPGASVKVSCKASGYTFTGYYMHWVRQAPGQGLEWMGWINPNSGDTNYAQKFQGRVTMTRDTSITTAYMELSSLRSDDTAVYYCARDSPYSSSWSFFDYWGQGPLVTVSS
VL: DIVMTQSPDSLAVSLGERATINCKSSQSVLYSSNNKSHLAWYQQKPGQPPKLLIYWASTRESGVPDRFSGSGSGTDFTLIISSLQAEDVAVYYCQQYYFSPLTFGGGTKVEIK
B8: TCN-523 (5248_A17) (antibody, V domains shown)
VH: QVQLVQSGAEVKKPGSSVKVSCKASGGSFSNYAFSWVRQAPGQGLEWMGGTIPLLGTTNYAQKFQGRVTISADQFTSTAYMELGSLRSEDTAVYYCTRRKMTTAFDSWGQGTLVTVSS
VL: QPVLTQPPSASASLGASVTLTCTLSSAYSNYKVDWYQQRPGKGPRFVMRVGTGGIVGSKGDGIPDRFSVLGSGLNRYLTIKNIQEEDESDYHCGADHGSGSNFVSPYVFGGGTKLTVL
B9: TCN-538 (3206_O17) (antibody, V domains shown)
VH: B3 VH
VL: B3 VL
B10: TCN-537 (3194_D21) (antibody, V domains shown)
VH: B2 VH
VL: B2 VL
B11: TCN-550 (5096_F06) (antibody, V domains shown)
VH: QVQLQESGPGLVKPSETLSLTCTVSGASINSHYWSWIRQPPGKGLEWIGYVYYSGSTTYNPSLKSRVTLSVDTSKNQFSLNLSSVTAADTAFYYCARHPYDVLTGSGDWFDPWGQGTLVTVSS
VL: SYVLTQAPSVSVAPGQTARITCGGNAIGSKKVHWYQHKAGQAPVLVVYDDTDRPSGIPERFSGSNSWSTATLTINRVEAGDEADYYCQVWDFTIDHVVFGGGTKLTVL
B12: TCN-544 (5082_A19) (antibody, V domains shown)
VH: QVQLQESGPGLVKPSETLSLTCTVSRGSIGHYFWSWIRQPPGKGLEWIGYISYSGSTKYNPSLRSRVTISVDTSKNQFSLNLNSVTATDTALYYCAREDYDILTGAGPGMEVWGQGTTVTVSS
VL: QSMLTQPPSASGTPGQRVTISCSGSSSNIGSNTVNWFKHLPGTAPKLLIYRNDLRPSGVPDRFSGSKSGTSASLAISGLQSEDEADYYCATWDDSLNGFYVFGTGTKVTVL
B13: TCN-548 (5092_P01) (antibody, V domains shown)
VH: QVQLQESGPGLVKPSETLSLTCTVSSGPMSDYYWSWIRQPPGKGLEWIGHVSVSHGGRTKSNPSVMSRVTISVETSKNQFSLKLTSVTAADTAVYYCARLNYYDRSGYHSPDGPSNNWFDPWGQGTLVTVSS
VL: B7 VL with S37N, H38Y, F68I, T75A, I80T, Y98F, F99A, S100T, L102R, G106Q
B14: TCN-549 (5092_P04) (antibody, V domains shown)
VH: B7 VH
VL: B7 VL
B15: TCN-545 (5082_I15) (antibody, V domains shown)
VH: QVQLQQWGAGLLKPSETLSLSCAVFGGSFSDYYWTWIRQPPGKGLEWIGEIKHSGRTNYNPSLESRVTISVDTSKNQFSLKLSSVTAADTAIYYCARGTDPDTEGYCRSGSCSAFDFWGQGTLVTVSS
VL: EIVLTQSPGTLSLSPGERATLSCRASHFVNYRSLAWYQQTPGQVPRLLIYGASTRATGIPDRFSGSGSGTDFTLTISRLEPEDFAVYFCQQYGGSPRYTFGQGTRLEIK

Molecular target: recombinant soluble homotrimeric HA of A/Wisconsin/67/05 (H3N2) (Influenza A virus A/Wisconsin/67/05 …)
Assay: not given

Binder | Trimeric HA Binding: RLU [RLU]
B1 | 7980
B2 | 549
B3 | 6900
B4 | 36800

Molecular target: recombinant soluble homotrimeric HA of A/California/4/09 (H1N1) (Influenza A virus A/California/4/09 …)
Assay: microarray, BCC supernatant IgG, trimeric HA

Binder | Trimeric HA Binding: RLU [RLU]
B1 | 30100
B2 | 21900
B5 | 48600
B3 | 13800
B4 | 46600

Molecular target: recombinant soluble homotrimeric HA of A/Solomon Islands/3/06 (H1N1) (Influenza A virus A/Solomon …)
Assay: microarray, BCC supernatant IgG, trimeric HA

Binder | Trimeric HA Binding: RLU [RLU]
B1 | 44200
B5 | 39400
B6 | 39600
B3 | 33200
B4 | 32800
B7 | 284
B8 | 37900

Molecular target: recombinant soluble homotrimeric HA of A/Egypt/3300-NAMRU3/08 (H5N1) (Influenza A virus …)
Assay: microarray, BCC supernatant IgG, trimeric HA

Binder | Trimeric HA Binding: RLU [RLU]
B1 | 41400
B2 | 38200
B5 | 39400
B3 | 23600
B4 | 30400

Molecular target: recombinant soluble homotrimeric HA of A/chicken/Vietnam/NCVD-016/08 (H5N1) (Influenza A virus …)
Assay: microarray, BCC supernatant IgG, trimeric HA

Binder | Trimeric HA Binding: RLU [RLU]
B1 | 56600
B2 | 8620
B5 | 50000
B3 | 37300
B4 | 48300
B7 | 498

Molecular target: recombinant soluble homotrimeric HA of A/northern shoveler/California/HKWF115/07 (Influenza A virus A/northern …)
Assay: microarray, BCC supernatant IgG, trimeric HA

Binder | Trimeric HA Binding: RLU [RLU]
B1 | 52400
B2 | 5210
B5 | 48200
B3 | 17400
B4 | 45300
B7 | 1100

Molecular target: recombinant soluble homotrimeric HA of A/duck/Yangzhou/02/05 (H8N4) (Influenza A virus …)
Assay: microarray, BCC supernatant IgG, trimeric HA

Binder | Trimeric HA Binding: RLU [RLU]
B1 | 46500
B2 | 7830
B5 | 36600
B3 | 6120

Molecular target: recombinant soluble homotrimeric HA of A/Hong Kong/2108/03 (H9N2) (Influenza A virus A/Hong Kong/2108/03 …)
Assay: microarray, BCC supernatant IgG, trimeric HA

Binder | Trimeric HA Binding: RLU [RLU]
B1 | 165
B6 | 93
B3 | 109
B4 | 486
B8 | 189

Molecular target: recombinant soluble homotrimeric HA of A/Egypt/3300-NAMRU3/08 - H5N1 (Influenza A virus …)
Assay: micro-array; captured IgG, V5-tagged trimeric HA

Binder | Trimeric HA Binding: RLU [RLU]
B9 | 41000

Molecular target: recombinant soluble homotrimeric HA of A/chicken/Vietnam/NCVD-016/08 - H5N1 (Influenza A virus …)
Assay: micro-array; captured IgG, V5-tagged trimeric HA

Binder | Trimeric HA Binding: RLU [RLU]
B10 | 4480
B11 | 1800
B12 | 3070
B13 | 1060
B14 | 1600
B15 | 3230

Molecular target: recombinant soluble homotrimeric HA of A/Hong Kong/156/97 - H5N1 (Influenza A virus A/Hong Kong/156/97 …)
Assay: micro-array; captured IgG, V5-tagged trimeric HA

Binder | Trimeric HA Binding: RLU [RLU]
B11 | 955

Molecular target: recombinant soluble homotrimeric HA of A/northern shoveler/California/HKWF115/2007 - H6N1 (Influenza A virus A/northern …)
Assay: micro-array; captured IgG, V5-tagged trimeric HA

Binder | Trimeric HA Binding: RLU [RLU]
B11 | 2300
B9 | 8900
B12 | 2920
B13 | 2100
B14 | 996

Molecular target: recombinant soluble homotrimeric HA of A/duck/Yangzhou/02/2005 - H8N4 (Influenza A virus …)
Assay: micro-array; captured IgG, V5-tagged trimeric HA

Binder | Trimeric HA Binding: RLU [RLU]
B10 | 25500
B11 | 4710
B12 | 9440
B13 | 5740
B14 | 9450
B15 | 13200
